Results: patent US12122786B2, “Inhibitors of cyclic mono- and di-nucleotide phosphodiesterases and the uses thereof” (priority 2020, dated 2024)

Sequences of proteins named here, by UniProt entry; tags and fusion partners are left off.
UniProt P71615, whole entry: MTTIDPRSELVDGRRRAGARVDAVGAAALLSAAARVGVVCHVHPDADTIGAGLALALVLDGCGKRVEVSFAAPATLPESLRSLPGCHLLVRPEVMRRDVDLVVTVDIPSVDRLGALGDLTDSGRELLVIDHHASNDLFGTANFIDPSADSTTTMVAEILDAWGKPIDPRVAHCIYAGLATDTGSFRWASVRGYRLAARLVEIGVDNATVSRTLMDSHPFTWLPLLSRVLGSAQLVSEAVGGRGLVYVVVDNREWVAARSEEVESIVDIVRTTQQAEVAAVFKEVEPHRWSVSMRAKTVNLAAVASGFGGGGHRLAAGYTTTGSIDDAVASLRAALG

Columns and labels:
[1] = target: T1, MTB CdnP (Mycobacterium tuberculosis, UniProt P71615); assay: IC50 determination of MTB CdnP inhibition, coralyne assay; conditions: read-out: IC50 of MTB CdnP enzymatic activity inhibition, 50 nM MTB CdnP and 80 μM c-di-AMP
[2] = target: T1, MTB CdnP; assay: Radioisotope thin layer chromatography (TLC) of c-di-AMP cleavage by MTB CdnP; conditions: 0.5 μM MTB CdnP, 1 h at 37° C.; for inhibitory effect on c-di-AMP hydrolysis by MTB CdnP (TLC) at 20 μM: 20 μM concentration; for inhibition of c-di-AMP hydrolysis by MTB CdnP (TLC), varying inhibitor concentrations: 20 to 150 μM inhibitor
[3] = target: T1, MTB CdnP; assay: HPLC analysis of c-di-AMP cleavage by MTB CdnP; conditions: 20 μM compound, 100 nM MTB CdnP, 70 μM c-di-AMP, 37° C.

Row | Compound | IC50 [1] [µM] | inhibitory effect on c-di-AMP hydrolysis by MTB CdnP (TLC) at 20 μM [2] | inhibition of c-di-AMP hydrolysis by MTB CdnP (TLC), varying inhibitor concentrations [2] | inhibition of c-di-AMP cleavage by MTB CdnP (HPLC), 3 h incubation [3]
1 | Cc1ccc(C)c(NC(=O)Cn2cnc3ccccc3c2=O)c1 | 34.6 | did not show any inhibitory effect | least potent compounds | lower enzymatic inhibition
2 | Cc1ccc(Cl)cc1NC(=O)Cn1cnc2ccccc2c1=O | > 60 |  |  | most potent inhibitory effects
3 | COc1ccc(Cl)cc1NC(=O)Cn1cnc2sc3c(c2c1=O)CCC(C)C3 (stereo not shown) | 21.4 |  |  | 
4 | Cc1ccc([N+](=O)[O-])cc1NC(=O)Cn1cnc2ccccc2c1=O | 24.5 |  |  | most potent inhibitory effects
5 | CN(C)c1nc(-c2cccnc2)nc2c1CCN(C(=O)c1cccc(O)c1)C2 | 48.9 | very little inhibitory effect | least potent compounds | did not show any activity
